Pooled drug test results. Numbers come from NIAID ChemDB, via PubChem.

Common to all: host cell toxicity; read-out: CC50

Blank or dashed fields: not listed here. CCn: concentration that lowers growth or viability of the cells by n%. Lines come from different laboratories, so protocols vary.

| compound | cells | method | result |
|---|---|---|---|
| CC(C)c1ccc2c(c1)c(=O)cc(-c1cccs1)n2C | HELA-OHIO | MTT | 11 µg/mL |
| CCOC(=O)CNC1=C(C#N)C2=C(CCC/C2=C\c2ccncc2)C(c2ccncc2)S1 | CNE-2 | MTT | >50 µM |
| CCCCOC(=O)[C@@]1(C)CC[C@]2(C)CC[C@]3(C)C(=CC(=O)[C@@H]4[C@@]5(C)CC[C@H](O)C(C)(C)[C@@H]5CC[C@]43C)[C@@H]2C1 | HepG2.2.15 | - | >986 µM |
| O=c1cc(N2CCc3ccccc3C2)c2cccnc2n1O | HeLa | - | <100 µM |
| CCO/C=N\C1=C(C#N)C2=C(CCC/C2=C\c2ccncc2)C(c2ccncc2)S1 | KB | MTT | 46.8 µM |
| COS(=O)Nc1cccc(-c2cnc3c(c2)c(O)cc(=O)n3O)c1 | HeLa | - | <100 µM |
| COC(=O)C1=C(CN2CC(F)(F)[C@@H]3[C@H]2CON3C[C@@H](OC)C(C)(C)C(=O)O)NC(c2nccs2)=N[C@H]1c1ccc(F)c(F)c1C | HepG2.2.15 | WST / absorbance | 50 µM |
| Cc1c(-c2ccccc2)n(-c2ccc(F)cc2)c2ccc(C(C)C)cc2c1=O | HELA-OHIO | MTT | >5 µg/mL |
| CCN(CC)C(=S)N=Nc1c(O)[nH]c2ccccc12 | hRD | - | >25 µM |
| O=C1/C(=C/c2ccc(-c3cc(C(F)(F)F)ccc3Cl)o2)SC(=S)N1Cc1ccc(F)cc1 | BAE | MTT | 2.2 µM |
| Cc1nc2c(c(=N)n1Nc1ccccc1)C1=C(CCC/C1=C\c1ccncc1)C(c1ccncc1)S2 | MGC-803 | MTT | 11.9 µM |
| Nc1nc(N)c2cc3c(ccc4ccccc43)nc2n1 | CCRF-CEM | MTT | 1.8 µM |
| O=c1c(Cc2ccccc2)c(O)c2cc(Cc3ccccc3)cnc2n1O | HeLa | - | 0.38 µM |
| CCC(C)[C@@H]1NC(=O)[C@@H](C(C)CC)NC(=O)[C@H](CC(C)C)NC(=O)[C@H](Cc2c[nH]c3ccccc23)NC(=O)CNC(=O)[C@H](CC(N)=O)NC1=O | Lung carcinoma cells | MTT | >30 µM |
| C[C@@H]1C[C@@H](O)c2c(O[C@H]3O[C@H](CO)[C@@H](O)[C@H]3O)cccc2O1 | HL-60 | MTT | >40 µg/mL |
| CN(C)c1ccc2c(c1)Cc1cc(NC(N)=S)ccc1-2 | Ava5-EG(delta4AB)SEAP | MTS | >1 µM |
| CC1(C)[C@@H](O)CC[C@]2(C)[C@H]3C(=O)C=C4[C@@H]5C[C@@](C)(C(=O)OCc6cccc(Cl)c6)CC[C@]5(C)CC[C@@]4(C)[C@]3(C)CC[C@@H]12 | HepG2.2.15 | - | >1850 µM |
| CC(C)C[C@@H]1NC(=O)[C@H](Cc2c[nH]c3ccccc23)NC(=O)[C@H]2CCCN2C(=O)[C@H](CCCCN)NC(=O)[C@H](C(C)C)NC(=O)[C@@H](CC(C)C)NC1=O | Colorectal carcinoma | MTT | >30 µM |
| O=c1sc2nc3c(c(=S)n2/c1=C/c1ccc(Cl)cc1)C1=C(CCC/C1=C\c1ccncc1)C(c1ccncc1)S3 | MCF-7 | MTT | 33.9 µM |
| Oc1[nH]c2ccccc2c1N=NC(=S)N1CCCC1 | hRD | - | >25 µM |
| CCOC(=O)c1c(O)c2cc(C(=O)N(C)Cc3ccccc3)cnc2n(O)c1=O | HeLa | - | <100 µM |
| CCOC(=O)C1=C(CN2CC(F)(F)[C@@H]3[C@H]2CON3CC[C@](C)(OC)C(=O)O)NC(c2nccs2)=N[C@H]1c1ccc(F)c(F)c1Cl | HepG2.2.15 | WST / absorbance | >50 µM |
| Nc1nc(N)c2cc3c(nc2n1)CCc1ccccc1-3 | HCF-7 | MTT | 32.4 µM |
| Cc1c(-c2cccs2)n(C)c2ccc(OCC(C)C)c(C)c2c1=O | HELA-OHIO | MTT | >2.5 µg/mL |
| Nc1c2c(nc(=O)n1-c1ccccc1)SC(c1ccncc1)C1=C2/C(=C/c2ccncc2)CCC1 | KB | MTT | 13.4 µM |
| O=c1cc(-c2ccc(NCCN3CCOCC3)nc2)c2cccnc2n1O | HeLa | - | <100 µM |
| Oc1[nH]c2ccc(Br)cc2c1N=NC(=S)Nc1ccccc1 | hRD | - | >25 µM |
| CCn1c(-c2ccccc2)c(C)c(=O)c2cc(-c3ccccc3)ccc21 | HeLa S3 | MTT | >2.5 µg/mL |
| O=C(NCc1ccc(Cl)cc1)c1c[nH]c2c(F)cccc2c1=O | 10T1/2 | - | 89 µM |
| CCc1cccnc1CN(CCCCN)Cc1nc2nccc(N3CCN(C)CC3)c2[nH]1 | C8166 | MTT | >10 µM |
| CC(C)C[C@@H]1NC(=O)[C@H](Cc2c[nH]c3ccccc23)NC(=O)C(CCCN=C(N)N)NC(=O)[C@H](CC(N)=O)NC(=O)[C@H](C(C)C)NC(=O)[C@@H](CC(C)C)NC1=O | Colorectal carcinoma | MTT | >30 µM |
| O=c1cc(Nc2ccccc2)c2cccnc2n1O | HeLa | - | <100 µM |
| CN1CCN(c2ccnc3nc(CN(CCCCN)Cc4ncccc4CCC#N)[nH]c23)CC1 | C8166 | MTT | >10 µM |
| O=C1NC(=Nc2ccccc2O)S/C1=C/c1ccc(O)c(O)c1 | HOS | - | 34 µM |
| CN(Cc1ccccn1)Cc1nc2ccccc2n1C(=O)OC(C)(C)C | C8166 | MTT | >10 µM |
| COC(=O)C1=C(CN2CC(F)(F)[C@H]3[C@@H]2CCN3C[C@@](C)(O)C(=O)O)NC(c2nccs2)=N[C@H]1c1cccc(F)c1F | HepG2.2.15 | WST / absorbance | >100 µM |
| CCN(CC)C(=S)Nc1cccc(OCCCCCOc2ccc(-c3ccccc3)cc2)c1 | Ava5-EG(delta4AB)SEAP | MTS | >1 µM |
| CCOC(=O)C1=C(CN2CC(F)(F)[C@@H]3[C@H]2CON3CCCC(C)(O)C(=O)O)NC(c2nccs2)=N[C@H]1c1cccc(F)c1C | HepG2.2.15 | WST / absorbance | 100 µM |
| CCCCCCOC(=O)[C@@]1(C)CC[C@]2(C)CC[C@]3(C)C(=CC(=O)[C@@H]4[C@@]5(C)CC[C@H](O)C(C)(C)[C@@H]5CC[C@]43C)[C@@H]2C1 | HepG2.2.15 | - | 175 µM |
| NC(=S)Nc1cccc(OCCCCCOc2ccccc2C(=O)Oc2ccccc2)c1 | Ava5-EG(delta4AB)SEAP | MTS | >1 µM |
| O=C(O)c1ccc(-c2ccc(/C=C3\SC(=S)N(CCc4ccc(Cl)c(Cl)c4)C3=O)o2)cc1O | HT-29 | MTT | >100 µM |
| CN1CCN(c2ccnc3nc(CN(CCCCN)Cc4ncccc4-c4ccccc4)[nH]c23)CC1 | C8166 | MTT | >10 µM |
| CC(C)C[C@@H]1NC(=O)[C@H](Cc2c[nH]c3ccccc23)NC(=O)[C@@H](CC2CCCCC2)NC(=O)[C@H](CCCCN)NC(=O)[C@H](C(C)C)NC(=O)[C@@H](CC(C)C)NC1=O | Lung carcinoma cells | MTT | >30 µM |
| Cc1ccc(CNc2cc(=O)n(O)c3ncccc23)cc1 | HeLa | - | <100 µM |
| NC(=S)Nc1cccc(OCCCCCc2cccc3ccccc23)c1 | Ava5-EG(delta4AB)SEAP | MTS | >1 µM |
| CCOC(=O)C1=C(CN2CC(F)(F)[C@@H]3[C@H]2CON3C[C@@H](OC)C(C)(C)C(=O)O)NC(c2nccs2)=N[C@@H]1c1ccc(F)c(F)c1C | HepG2.2.15 | WST / absorbance | 30.6 µM |
| O=C1/C(=C/c2ccc(-c3cc(C(F)(F)F)ccc3Cl)o2)SC(=S)N1Cc1ccc(Cl)cc1 | HT-29 | MTT | 8.3 µM |
| CCOC(=O)CCCCCOC(=O)[C@@]1(C)CC[C@]2(C)CC[C@]3(C)C(=CC(=O)[C@@H]4[C@@]5(C)CC[C@H](O)C(C)(C)[C@@H]5CC[C@]43C)[C@@H]2C1 | HepG2.2.15 | - | 54.74 µM |
| Cc1c(-c2ccccc2)n(C)c2ccc(NCC(C)C)cc2c1=O | HELA-OHIO | MTT | >5 µg/mL |
| Oc1[nH]c2ccccc2c1N=NC(=S)Nc1ccccc1 | hRD | - | >25 µM |
| CC(C)CNC(=S)Nc1ccc2c(c1)Cc1cc(Br)ccc1-2 | Ava5-EG(delta4AB)SEAP | MTS | >1 µM |
| Cc1c(-c2ccccc2)n(-c2ccccc2)c2ccc(C(C)C)cc2c1=O | HELA-OHIO | MTT | >5 µg/mL |
| CC(C)C[C@@H]1NC(=O)[C@H](Cc2c[nH]c3ccccc23)NC(=O)[C@@H](CCCN=C(N)N)NC(=O)[C@H](CC(N)=O)NC(=O)[C@H](C(C)C)NC(=O)[C@@H](CC(C)C)NC1=O | Colorectal carcinoma | MTT | >30 µM |
| CCCNc1ccc2c(c1)Cc1cc(NC(N)=S)ccc1-2 | Ava5-EG(delta4AB)SEAP | MTS | >1 µM |
| CC(C)C[C@@H]1NC(=O)[C@H](Cc2c[nH]c3ccccc23)NC(=O)[C@@H](Cc2ccccc2)NC(=O)[C@H](CCCCN)NC(=O)[C@H](C(C)C)NC(=O)[C@@H](CC(C)C)NC1=O | Lung carcinoma cells | MTT | >30 µM |
| CCc1nc(CCC(=O)O)cnc1CCC(=O)O | MCF-7 | MTT | >40 µg/mL |
| COc1ccc(-c2c(C)c(=O)c3c(C)c(OCC(C)C)ccc3n2C)cc1C | HELA-OHIO | MTT | >4 µg/mL |
| Cc1c[nH]c2c1C(c1ccc(O)c(O)c1)C(C#N)=C(N)O2 | HOS | - | 50 µM |
| CCOC(=O)C1=C(CN2CC(F)(F)[C@@H]3[C@H]2CON3C[C@@H](O)C(CC)(CC)C(=O)O)NC(c2nccs2)=N[C@H]1c1cccc(F)c1C | HepG2.2.15 | WST / absorbance | 15.8 µM |
| N#CC1=C(N)SC(c2ccncc2)C2=C1/C(=C/c1ccncc1)CCC2 | MGC-803 | MTT | >50 µM |
| CN(Cc1nc2ccccc2[nH]1)C1CCCc2cccnc21 | C8166 | MTT | 10 µM |
| Nc1c2c(nc(=S)n1-c1ccccc1)SC(c1ccncc1)C1=C2/C(=C/c2ccncc2)CCC1 | MGC-803 | MTT | 14.8 µM |
| CC1(C(=O)O)CC[C@]2(C)CC[C@]3(C)C(=CC(=O)C4[C@@]5(C)CCC(=O)C(C)(C)C5CC[C@]43C)C2C1 | HepG2.2.15 | - | 467 µM |
| Cc1cccnc1CNCc1nc2nccc(N3CCN(C)CC3)c2[nH]1 | C8166 | MTT | >10 µM |
| CC1(C)[C@@H](O)CC[C@]2(C)[C@H]3C(=O)C=C4[C@@H]5C[C@@](C)(C(=O)OCc6ccc([N+](=O)[O-])cc6)CC[C@]5(C)CC[C@@]4(C)[C@]3(C)CC[C@@H]12 | HepG2.2.15 | - | >1330 µM |
| CC(C)C[C@@H]1NC(=O)[C@H](Cc2c[nH]c3ccccc23)NC(=O)[C@@H](CCCCN)NC(=O)[C@H](CC(N)=O)NC(=O)[C@H](C(C)C)NC(=O)[C@@H](CC(C)C)NC1=O | Lung carcinoma cells | MTT | >30 µM |
| CCn1c(-c2ccccc2)c(C)c(=O)c2cc(OCC(C)C)c(C)cc21 | HeLa S3 | MTT | >4 µg/mL |
| O=c1cc(NC2CCc3ccccc32)c2cccnc2n1O | HeLa | - | 0.034 µM |
| Nc1c(C(=O)c2ccccc2)[nH]c2c1C1=C(CCC/C1=C\c1ccncc1)C(c1ccncc1)S2 | CNE-2 | MTT | >50 µM |

A second listing of 5 rows from above:

CCOC(=O)CNC1=C(C#N)C2=C(CCC/C2=C\c2ccncc2)C(c2ccncc2)S1 ; cells: CNE-2 ; method: MTT ; result: >50 µM
O=c1sc2nc3c(c(=S)n2/c1=C/c1ccc(Cl)cc1)C1=C(CCC/C1=C\c1ccncc1)C(c1ccncc1)S3 ; cells: MCF-7 ; method: MTT ; result: 33.9 µM
CCOC(=O)C1=C(CN2CC(F)(F)[C@@H]3[C@H]2CON3CCCC(C)(O)C(=O)O)NC(c2nccs2)=N[C@H]1c1cccc(F)c1C ; cells: HepG2.2.15 ; method: WST / absorbance ; result: 100 µM
Cc1c[nH]c2c1C(c1ccc(O)c(O)c1)C(C#N)=C(N)O2 ; cells: HOS ; result: 50 µM
CCO/C=N\C1=C(C#N)C2=C(CCC/C2=C\c2ccncc2)C(c2ccncc2)S1 ; cells: KB ; method: MTT ; result: 46.8 µM